{
  "source": "paper PMC12121777",
  "about": "(PLOS One, 2025)",
  "tested_on": "HepG2 cells",
  "experiment": "Cytotoxicity on HepG2 cell line (CellTiter 96)",
  "assay_type": "cell-based, human",
  "note": "Like-named read-outs stand apart in the source and are kept apart here.",
  "data": [
    {"smiles": "CCCCNC(=O)NNC(=O)c1cc([N+](=O)[O-])cc([N+](=O)[O-])c1", "note": "[Compound 4d, N-Butyl-2-(3,5-dinitrobenzoyl)hydrazine-1-carboxamide]", "values": [
      {"measurement": "SI for M. kansasii 6509/96", "result": 49.5},
      {"measurement": "SI for Mtb 331/88", "setting": "ratio of IC50 (HepG2) to MIC", "result": 98.9}
    ]},
    {"smiles": "CCCCCNC(=O)NNC(=O)c1cc([N+](=O)[O-])cc([N+](=O)[O-])c1", "note": "[Compound 4e, 2-(3,5-Dinitrobenzoyl)-N-pentylhydrazine-1-carboxamide]", "values": [
      {"measurement": "SI for M. kansasii 6509/96", "result": 66.8},
      {"measurement": "SI for Mtb 331/88", "setting": "ratio of IC50 (HepG2) to MIC", "result": 133.6}
    ]},
    {"smiles": "CCCCCCNC(=O)NNC(=O)c1cc([N+](=O)[O-])cc([N+](=O)[O-])c1", "note": "[Compound 4f, 2-(3,5-Dinitrobenzoyl)-N-hexylhydrazine-1-carboxamide]", "values": [
      {"measurement": "SI for M. kansasii 6509/96", "result": 119.0},
      {"measurement": "SI for Mtb 331/88", "setting": "ratio of IC50 (HepG2) to MIC", "result": 119.0}
    ]},
    {"smiles": "CCCCCCCCNC(=O)NNC(=O)c1cc([N+](=O)[O-])cc([N+](=O)[O-])c1", "note": "[Compound 4h, 2-(3,5-Dinitrobenzoyl)-N-octylhydrazine-1-carboxamide]", "values": [
      {"measurement": "SI for M. kansasii 6509/96", "result": 136.4},
      {"measurement": "SI for Mtb 331/88", "result": 272.8}
    ]},
    {"smiles": "CCCCCCCCCCNC(=O)NNC(=O)c1cc([N+](=O)[O-])cc([N+](=O)[O-])c1", "note": "[Compound 4j, N-Decyl-2-(3,5-dinitrobenzoyl)hydrazine-1-carboxamide]", "values": [
      {"measurement": "SI for M. kansasii 6509/96", "result": 35.3},
      {"measurement": "SI for Mtb 331/88", "setting": "ratio of IC50 (HepG2) to MIC", "result": 141.0}
    ]},
    {"smiles": "CCCCCCCCCCCNC(=O)NNC(=O)c1cc([N+](=O)[O-])cc([N+](=O)[O-])c1", "note": "[Compound 4k, 2-(3,5-Dinitrobenzoyl)-N-undecylhydrazine-1-carboxamide]", "values": [
      {"measurement": "SI for M. kansasii 6509/96", "result": 25.0},
      {"measurement": "SI for Mtb 331/88", "setting": "ratio of IC50 (HepG2) to MIC", "result": 99.9}
    ]},
    {"smiles": "CCCCCCCCCCCCNC(=O)NNC(=O)c1cc([N+](=O)[O-])cc([N+](=O)[O-])c1", "note": "[Compound 4l, 2-(3,5-Dinitrobenzoyl)-N-dodecylhydrazine-1-carboxamide]", "values": [
      {"measurement": "SI for M. kansasii 6509/96", "result": 41.5},
      {"measurement": "SI for Mtb 331/88", "setting": "ratio of IC50 (HepG2) to MIC", "result": 82.9}
    ]},
    {"smiles": "CCCCCCCCCCCCCNC(=O)NNC(=O)c1cc([N+](=O)[O-])cc([N+](=O)[O-])c1", "note": "[Compound 4m, 2-(3,5-Dinitrobenzoyl)-N-tridecylhydrazine-1-carboxamide]", "values": [
      {"measurement": "SI for M. kansasii 6509/96", "result": 40.7},
      {"measurement": "SI for Mtb 331/88", "setting": "ratio of IC50 (HepG2) to MIC", "result": 40.7}
    ]},
    {"smiles": "CCCCCCCCCCCCCCNC(=O)NNC(=O)c1cc([N+](=O)[O-])cc([N+](=O)[O-])c1", "note": "[Compound 4n, 2-(3,5-Dinitrobenzoyl)-N-tetradecylhydrazine-1-carboxamide]", "values": [
      {"measurement": "SI for M. kansasii 6509/96", "result": 25.9},
      {"measurement": "SI for Mtb 331/88", "setting": "ratio of IC50 (HepG2) to MIC", "result": 25.9}
    ]},
    {"smiles": "CCCCCCCCCCCCCCCNC(=O)NNC(=O)c1cc([N+](=O)[O-])cc([N+](=O)[O-])c1", "note": "[Compound 4o, 2-(3,5-Dinitrobenzoyl)-N-pentadecylhydrazine-1-carboxamide]", "values": [
      {"measurement": "SI for M. kansasii 6509/96", "result": 5.2},
      {"measurement": "SI for Mtb 331/88", "setting": "ratio of IC50 (HepG2) to MIC", "result": 5.2}
    ]},
    {"smiles": "CCCCCCCNc1nnc(-c2cc([N+](=O)[O-])cc([N+](=O)[O-])c2)o1", "note": "[Compound 5g, 5-(3,5-Dinitrophenyl)-N-heptyl-1,3,4-oxadiazol-2-amine]", "values": [
      {"measurement": "SI for M. kansasii 6509/96", "result": "> 800"},
      {"measurement": "SI for Mtb 331/88", "result": "> 3,333"}
    ]},
    {"smiles": "CCCCCCCCCCCCCCNc1nnc(-c2cc([N+](=O)[O-])cc([N+](=O)[O-])c2)o1", "note": "[Compound 5n, 5-(3,5-Dinitrophenyl)-N-tetradecyl-1,3,4-oxadiazol-2-amine]", "values": [
      {"measurement": "SI for M. kansasii 6509/96", "result": "> 50"},
      {"measurement": "SI for Mtb 331/88", "setting": "ratio of IC50 (HepG2) to MIC", "result": "> 50"}
    ]},
    {"smiles": "CCCCCCCCCCCCCCCNc1nnc(-c2cc([N+](=O)[O-])cc([N+](=O)[O-])c2)o1", "note": "[Compound 5o, 5-(3,5-Dinitrophenyl)-N-pentadecyl-1,3,4-oxadiazol-2-amine]", "values": [
      {"measurement": "SI for M. kansasii 6509/96", "result": "> 25"},
      {"measurement": "SI for Mtb 331/88", "setting": "ratio of IC50 (HepG2) to MIC", "result": "> 25"}
    ]},
    {"smiles": "NNC(=O)c1ccncc1", "note": "[INH, isoniazid, reference compound]", "values": [
      {"measurement": "SI for Mtb 331/88", "setting": "ratio of IC50 (HepG2) to MIC", "result": "> 1000"}
    ]}
  ]
}
